We go through one substance from patent publication US20140274782A1, “AFFINITY REAGENTS AND METHODS FOR DETECTION, PURIFICATION, AND PROTEOMIC ANALYSIS OF METHYLATED PROTEINS” (The Board of Trustees of the Leland Stanford Junior …, priority 2013, published 2014).

The test addresses CMTM3-CKLF-like MARVEL transmembrane domain containing 3 (CMTM3), transcript variant 4 (human) (UniProt Q96MX0). As to the kind of experiment: ProtoArray, GST-treated control array.

For the substance 3× Flag-3×MBT (designed binder), the GST Average SNR was 0.469.
